Experimental data taken from patent publication US12365710B2, “HMGB1 protein derivatives for the removal of biofilms” (RESEARCH INSTITUTE AT NATIONWIDE CHILDREN'S HOSPITAL, priority 2018, dated 2025).

System: NTHI biofilms
Assay type: in vivo, chinchilla
Conditions: anti-inflammatory cytokine; data not shown
Method: FIGS. 8A-8F: rHMGB1 and mHMGB1 promote biofilm resolution in an experimental otitis media model. Diluent, 0.2 nmol rHMGB1, or 0.2 nmol mHMGB1 were delivered directly to middle ears of chinchillas at 4 and 5 days post-challenge with NTHI. Animals were sacrificed 24 h later, middle ears were imaged (FIG. 8C, representative images) and, based on the criteria described in (FIG. 8A, biofilm) and (FIG. 8B, inflammation), blindly scored for presence of biofilm (FIG. 8D) and inflammation (FIG. 8F). CFU of NTH1 present in the mucosal biomass were quantified (FIG. 8E). Means and SEM are plotted. **P<0.01, ****P<0.0001.
rHMGB1 and mHMGB1 disrupt biofilms in two distinct animal models but the inflammatory response is strongly attenuated with Cys to Ser mutations: Applicant tested both rHMGB1 and mHMGB1 for their ability to treat middle ear infection and the corresponding inflammatory response using a well-established chinchilla model of experimental OM due to NTHI49,67,68 wherein adhered mucosal biofilm formation plays a key role in pathogenesis (FIG. 8A). […] On day 6, animals were sacrificed and middle ears were imaged and blindly scored for biofilm that remained (FIG. 8A) and mucosal inflammation (FIG. 8B). […] Next, Applicant determined whether rHMGB1 or mHMGB1 could prevent or aggregate biofilm development. […] Next, Applicant assessed the ability of rHMGB1 and mHMGB1 to treat established Bc infection. […]

B1: mHMGB1: engineered C45S variant of full length rHMGB1 that mimics the reduced form of HMGB1 (protein, UniProt P09429 1-215, looked up, variant C45S)
chain: MGKGDPKKPRGKMSSYAFFVQTCREEHKKKHPDASVNFSEFSKKSSERWKTMSAKEKGKFEDMAKADKARYEREMKTYIPPKGETKKKFKDPNAPKRPPSAFFLFCSEYRPKIKGEHPGLSIGDVAKKLGEMWNNTAADDKQPYEKKAAKLKEKYEKDIAAYRAKGKPDAAKKGVVKAEKSKKKKEEEEDEEDEEDEEEEEDEEDEDEEEDDDDE
modifications: full-length
notes: engineered C45S variant of full length rHMGB1 that mimics the reduced form of HMGB1
increased IL-4 in middle ear fluids: 2 fold | increased IL-10 in middle ear fluids: 5 fold
